{"source": "paper PMC11840927", "about": "“Frataxin Traps Low Abundance Quaternary Structure to Stimulate Human Fe–S Cluster Biosynthesis” (Biochemistry, 2025)", "target": "the molecule itself", "test": "native MS; SDAec alone, EMR Orbitrap, 200 mM ammonium acetate pH 8.5; α2β2γ2 complex against αβγ protomers", "note": "Where “and” joins values, the source holds several entries; their conditions need not be identical. Identical values can stand only once."}
{"protein": "NFS1(Δ1–55)-ISD11(S11A)-ACPec complex with N-terminal His6 tag on NFS1 (complex, human | Escherichia coli, covalently attached PLP | acyl-4′PPT (assumed mass 523 Da), NFS1, human cysteine desulfurase, Δ1–55 (residues 56 to the C-terminus); ISD11 (LYRM superfamily), human, S11A; Escherichia coli acyl-carrier protein (ACPec) associated with NFS1-ISD11; Used uniformly 14N or 15N labelled in the exchange experiments; Calculated masses excluded the N-terminal methionine if present; also called SDAec; His-tagged SDAec; not shown: His6, N-terminal, kept; copies: 2 + …) chain 1: LRPLYMDVQATTPLDPRVLDAMLPYLINYYGNPHSRTHAYGWESEAAMERARQQVASLIGADPREIIFTSGATESNNIAIKGVARFYRSRKKHLITTQTEHKCVLDSCRSLEAEGFQVTYLPVQKSGIIDLKELEAAIQPDTSLVSVMTVNNEIGVKQPIAEIGRICSSRKVYFHTDAAQAVGKIPLDVNDMKIDLMSISGHKIYGPKGVGAIYIRRRPRVRVEALQSGGGQERGMRSGTVPTPLVVGLGAACEVAQQEMEYDHKRISKLSERLIQNIMKSLPDVVMNGDPKHHYPGCINLSFAYVEGESLLMALKDVALSSGSACTSASLEPSYVLRAIGTDEDLAHSSIRFGIGRFTTEEEVDYTVEKCIQHVKRLREMSPLWEMVQDGIDLKSIKWTQH chain 2: MAASSRAQVLALYRAMLRESKRFSAYNYRTYAVRRIRDAFRENKNVKDPVEIQTLVNKAKRDLGVIRRQVHIGQLYSTDKLIIENRDMPRT chain 3: MSTIEERVKKIIGEQLGVKQEEVTNNASFVEDLGADSLDTVELVMALEEEFDTEIPDEEAEKITTVQAAIDYINGHQA", "values": [{"measurement": "stoichiometry N", "result": "2 and 4"}]}
